This passage reports K0.5, kcat/Km and Km results from paper PMC5719368, “Allosteric pyruvate kinase-based “logic gate” synergistically senses energy and sugar levels in Mycobacterium tuberculosis” (Nature Communications, 2017).

One data set concerns C=C(OP(=O)(O)O)C(=O)O. Nature of the data set: purified protein. As to conditions: pH 7.2; 25.0 °C.
Data set [1] has as its system Nc1ncnc2c1ncn2[C@@H]1O[C@H](COP(=O)(O)OP(=O)(O)O)[C@@H](O)[C@H]1O. Nature of the data set: purified protein. Conditions: pH 7.2; 25.0 °C.

With “MtbPYK (Mycobacterium tuberculosis H37Rv)”, in the data set with C=C(OP(=O)(O)O)C(=O)O, the K0.5 is given as 0.41 ± 0.01 mM and the kcat/Km was 446000 M⁻¹ s⁻¹. Also, the Km in data set [1] came out at 470 ± 20 µM.
